Anti-infective test results gathered from many reports (values: NIAID ChemDB through PubChem).

All rows: toxicity to cultured cells; cells: CEM; read-out: CC50

Rows are shuffled and stem from different studies. Blank or dashed fields: not listed here. CCn: concentration that lowers growth or viability of the cells by n%.

structure	method	result
CCCCCCCCCCCCCC(=O)OP(=O)(O)OC[C@H]1O[C@@H](n2cc(C)c(=O)[nH]c2=O)C[C@@H]1N=[N+]=[N-]	-	>20 µM
Cc1c(O)cccc1C(=O)N[C@@H](Cc1ccccc1)[C@@H](O)C[C@H](Cc1ccccc1)NC(=O)c1ccccc1NC(=O)OCc1ccccn1	-	>0.03 µM
O=C(OC[C@H]1O[C@@H](n2c(=S)[nH]c3cc(Cl)c(Cl)cc32)C(OC(=O)c2ccccc2)C1OC(=O)c1ccccc1)c1ccccc1	-	>100 µM
CCn1cc(C(=O)O)c(=O)c2cc(F)c(N3CCN(CC(=O)OC[C@H]4O[C@@H](n5cc(C)c(=O)[nH]c5=O)C[C@@H]4N=[N+]=[N-])CC3)cc21	XTT	>200 µM
COc1ccc(C2C(Cl)C(=O)N2NC(=O)c2ccccc2O)cc1OC	-	>50 µM
O=C(Nc1ccccc1C(=O)N[C@@H](Cc1ccccc1)C[C@H](O)[C@H](Cc1ccccc1)NC(=O)OCc1cscn1)OCc1ccccn1	-	>0.6 µM
COC(=O)[C@H](C)NP(=O)(OC[C@@H]1C=C[C@H](n2cc(C)c(=O)[nH]c2=O)O1)Oc1ccccc1	-	≥100 µM
Cc1cc(N[C@@H](C)c2cccc3ccccc23)cc(=O)o1	MTT	182 µM
C[C@]1(CCP(=O)(O)O)CO[C@@H](n2cnc3c(N)ncnc32)C1	-	30.4 µM
Cc1cn([C@H]2C=C[C@@H](COP(=O)(O)OP(=O)(O)O)O2)c(=O)[nH]c1=O	-	>20 µM
Cc1cn([C@H]2C[C@H](N=[N+]=[N-])[C@@H](COC(=O)CN3CCN(c4cc5c(cc4F)c(=O)c(C(=O)O)cn5C4CC4)CC3)O2)c(=O)[nH]c1=O	XTT	144 µM
CC(C)=CCN1Cc2cccc3[nH]c(=S)n(c23)C[C@@H]1C	-	421 µM
Cc1ccc(NC(=O)C23CC4CC(CC(C4)C2)C3)c(C(=O)NN)c1	-	38.9 µM
Nc1ncnc2c1ncn2[C@H]1C=C[C@@H](CO)O1	-	95 µM
Cc1cn([C@H]2C[C@H](F)[C@@H]([C@@H](C)O)O2)c(=O)[nH]c1=O	-	>100 µg/mL
C=CCSSCC=C	-	88 µM
C[C@]1(/C=C/P(=O)(O)O)CO[C@@H](n2cnc3c(N)ncnc32)C1	-	>100 µM
Cc1cc(NCc2ccccc2)cc(=O)o1	MTT	148 µM
Nc1ccc(C(=O)N[C@@H](Cc2ccccc2)[C@@H](O)C[C@H](Cc2ccccc2)NC(=O)c2ccccc2NC(=O)OCc2ccccn2)cc1	-	>0.5 µM
CC1=NN(C(=O)c2ccccc2O)C(=O)/C1=C/c1cccc([N+](=O)[O-])c1	-	0.098 µM
C=CCOC(=O)CCC	-	500 µM
O=C(NN1C(=O)C(Cl)C1c1ccccc1O)c1ccccc1O	-	8.2 µM
COCCCCCCCCCCCC(=O)OP(=O)(O)OP(=O)(O)OC[C@H]1O[C@@H](n2cc(C)c(=O)[nH]c2=O)C[C@@H]1N=[N+]=[N-]	-	>50 µM
Cc1cc(SCc2cccc3ccccc23)cc(=O)o1	MTT	16 µM
Cc1cn([C@H]2C[C@H](N=[N+]=[N-])[C@@H](CO)O2)c(=O)[nH]c1=O	-	>100 µM
Cc1cc(NCCc2c[nH]c3ccccc23)c(C(=O)C(Cl)Cl)c(=O)o1	MTT	4 µM
O=[N+]([O-])c1cc(Cl)c(Cl)cc1[N+](=O)[O-]	-	>100 µM
Cc1cn([C@H]2CC[C@@H](CO)O2)c(=O)[nH]c1=O	trypan blue	1380 µM
Cc1cn([C@H]2C=C[C@@H](COP(=O)(O)OP(=O)(O)OP(=O)(O)O)O2)c(=O)[nH]c1=O	-	>20 µM
Cc1cn([C@H]2C[C@H](F)[C@@H](C(C)O)O2)c(=O)[nH]c1=O	-	>100 µg/mL
Nc1cccc(C(=O)N[C@@H](Cc2ccccc2)[C@@H](O)C[C@H](Cc2ccccc2)NC(=O)c2ccccc2NC(=O)OCc2ccccn2)c1	-	>0.25 µM
CCCNC(=O)c1cc(Cl)ccc1NC(=O)C12CC3CC(CC(C3)C1)C2	-	>200 µM
COC(=O)[C@H](C)NP(=O)(OC[C@@H]1O[C@H](n2ccc(N)nc2=O)CS1)Oc1ccccc1	-	>100 µM
Cc1ccc(NC(=O)C23CC4CC(CC(C4)C2)C3)c(C(=O)N/N=C/c2cccs2)c1	-	>200 µM
CC1=NN(C(=O)c2ccc(Cl)cc2)C(=O)/C1=C/c1cccc(O)c1	-	>8 µM
OC[C@H]1O[C@@H](n2c(=S)[nH]c3cc(Cl)c(Cl)cc32)[C@H](O)[C@@H]1O	-	>100 µM
C=CCOC(C)=O	-	>1000 µM
O=c1oc(C23CC4CC(CC(C4)C2)C3)nc2ccc(Cl)cc12	-	>200 µM
CCCCCCCCCCCCCC(=O)OC[C@H](COP(=O)(O)OP(=O)(O)OC[C@@H]1CC[C@H](n2cc(C)c(=O)[nH]c2=O)O1)OC(=O)CCCCCCCCCCCCC	trypan blue	430 µM
CC1=NN(C(=O)c2ccccc2O)C(=O)/C1=C/c1ccc([N+](=O)[O-])cc1	-	0.091 µM
O=C(Nc1ccccc1C(=O)N[C@@H](Cc1ccccc1)C[C@H](O)[C@H](Cc1ccccc1)NC(=O)OCc1cccnc1)OCc1ccccn1	-	>0.35 µM
Cc1cc(S(=O)(=O)CCc2cccc3ccccc23)cc(=O)o1	MTT	83 µM
CCCCCCCCCCCCCC(=O)OP(=O)(O)OP(=O)(O)OC[C@@H]1C=C[C@H](n2cc(C)c(=O)[nH]c2=O)O1	-	>50 µM